# Earlier results, collected in patent publication US9078897B1, “Concentrated, inhalable antibiotic formulation” (ARADIGM CORPORATION, priority 2006, dated 2015).
# System: P. aeruginosa
# Conditions: cited from earlier work
smiles,measurement,setting,value
NC[C@H]1O[C@H](O[C@H]2[C@H](O)[C@@H](O[C@H]3O[C@H](CO)[C@@H](O)[C@H](N)[C@H]3O)[C@H](N)C[C@@H]2N)[C@H](N)C[C@@H]1O [tobramycin],patients with resistant isolates,"continuous therapy, after 3 months (from ~10%)",80%
same,patients with multiresistant P. aeruginosa,"intermittent inhaled therapy, after 18 months (14% at baseline)",23%
